How the values of this series were obtained:
In this example, fluorescein dye was used to detect the presence of free radicals, since interactions of oxidizing free radicals with fluorescein quench the fluorescence signal intensity. A fluorescein dye solution (4 μg/L) containing 0.4% (w/v) fructose and a fluorescein dye solution (4 μg/L) without fructose (control) were exposed to UV radiation at wavelength of 254 nm.
A batch-UV processing unit (Spectronics Spectrolinker XL-1500 UV Crosslinker, Westbury, N.Y.) was used for Examples 5-10. The apparatus consisted of 5 UV lamps (254 nm, 15 W, Spectronics Corporation, Westbury, N.Y.) that generated a UV intensity of approximately 20 mW/cm^2 at the surface of exposure mounted within a shielded box (46.4×15.9×31.8 cm). Fluorescence intensity measurement noise was minimized by allowing the lamps to warm up for at least 15 minutes prior to taking measurements.
The test fluorescein solution with approximately 1 μM fluorescein was prepared in deionized water (pH 6.3) or 100 mM buffer at pH 6. […] Specifically, treatments were carried out by adding a 10.0 ml solution into an uncovered glass petri dish and exposing it to UV radiation for various amounts of time (0-12 minutes) in the UV processing unit. The samples in the petri dish were stirred to achieve uniform exposure to UV light. Ambient room temperature (20-22° C.) was used for the treatments. To measure the fluorescence intensity of the solution, at each time interval, 100 μl of the sample was pipetted from the petri dish into a well of a 96-well plate optimized for fluorescence measurement. Fluorescence was measured in a Gemini XPS fluorescence micro-plate reader (Molecular Devices, Sunnyvale, Calif.) with excitation and emission wavelengths of 485 nm and 510 nm, respectively. All the fluorescence values were normalized using Eq. (1):
where I0=fluorescence intensity at time t=0 minutes and It=fluorescence intensity after ‘t’ minutes of UV exposure.

We go through 3 molecules from patent publication US20160088853A1, “Ultraviolet Disinfection of Produce, Liquids and Surfaces” (DREXEL UNIVERSITY, priority 2013, published 2016).

Consider `OC[C@H]1O[C@@](CO)(O[C@H]2O[C@H](CO)[C@@H](O)[C@H](O)[C@H]2O)[C@@H](O)[C@@H]1O` [sucrose, reference compound], for which the “effect on fluorescence intensity of fluorescein” value (263 mM sucrose or 500 mM glucose, 12 minutes of UV exposure, FIG. 10A) is recorded as “no effect”.

Take `O=C1O[C@H]([C@@H](O)CO)C(O)=C1O` [ascorbic acid, reference compound]: the “rate of loss of fluorescence” value (420 mg/L ascorbic acid in 0.4% (w/v) fructose, UV 254 nm, FIG. 4) is “significantly reduced”. Under “25 and 50 μM ascorbic acid in 20 mM fructose, phosphate buffer pH 6, concentration dependent, FIG. 12”, the “rate of fluorescence decay” value is given as “significantly reduced”.

`O=C(CO)[C@@H](O)[C@H](O)[C@H](O)CO` [fructose]: the “fraction of fructose in a form that exhibited photosensitivity to UV light” value turned out to be 0.8%. In addition, the “fluorescence intensity of fluorescein dye during UV exposure” value (0.4% (w/v) fructose, fluorescein 4 μg/L, UV 254 nm, FIG. 2) is on record as “rapidly decreased”. For the same molecule, the “change in fluorescence intensity in post-UV storage phase” value (0.4% fructose, after 4 minutes of UV exposure, absence of UV, FIG. 3) was “no significant changes”. Where the note is “mere addition of fructose, no UV”, the “effect on fluorescence intensity of fluorescein in absence of UV light” value was “did not show any effect”.
